PubChem BioAssay AID504761 | Drosophila RNAi Screening Center – 2011
The screen tested about 22,000 reagents; this is an unselected part of those that have a named target and a result. Of all reagents, 116 (0.52%) were called active. 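Calls depend on retest data that are not deposited; infection was ranked per plate without normalising between plates; the unit of the infection score is not given.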 Raw values vary from plate to plate and are shown uncorrected. Unmarked entries are inactive. Names joined by + are all predicted targets of the reagent. Not given: the amount of reagent, the time to read-out.

- Assay: 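Fly genes whose silencing reduces dengue virus type 2 infection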 (primary screen)
- Cells: D.Mel-2 cells from Drosophila
- Reagent: long dsRNA against Drosophila genes
- Conditions: infection with dengue virus type 2; dose and infection time not stated
- Detection: 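Cells stained for dengue envelope protein and imaged; percent of infected cells per well on duplicate plates, ranked by infection, with stained nuclei counted for cell number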
- Scale: infection score: higher = more virus-infected cells; cell count: higher = more cells in the well
- Active means: 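Low infection ranks in the two replicates (chance level up to 0.065) followed by a retest with a 1.5-fold or larger significant decrease, p below 0.05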
- Calls: active = confirmed: knock-down lowers infection; inactive = not picked or not confirmed

| gene | amplicon | infection score, replicate 1 | infection score, replicate 2 | cell count, replicate 1 | cell count, replicate 2 |
| --- | --- | --- | --- | --- | --- |
| CG3081 | DRSC18571 | – | 0.63 | 442 | 636 |
| PMP34 (Peroxisomal Membrane Protein 34) | DRSC21939 | 3.76 | 0.9 | 6521 | 6240 |
| CG18284 | DRSC02661 | 8.13 | 8.24 | 6062 | 6478 |
| CG18284 | DRSC20756 | 0.87 | 1.42 | 6520 | 6912 |
| CG18284 | DRSC25271 | 17.5 | 18.9 | 6445 | 5925 |
| Lamtor3 (Late endosomal/lysosomal adaptor, MAPK and MTOR activator 3) | DRSC02815 | 20.7 | 3.17 | 3784 | 6751 |
| Mpc1 | DRSC14770 | 1.03 | 2.45 | 6396 | 6367 |
| CG9632 | DRSC16528 | 12.6 | 24.1 | 6457 | 4715 |
| CG18853 | DRSC06795 | 19.2 | 16.5 | 5960 | 4729 |
| Tsp42En (Tetraspanin 42En) | DRSC06185 | 3.1 | 26.2 | 6027 | 5886 |
| gammaSnap2 (gamma Soluble NSF attachment protein 2) | DRSC15992 | 1.44 | 1.49 | 6736 | 6791 |
| CG14692 | DRSC14915 | 5.05 | 1.55 | 5797 | 3221 |
| CG15561 | DRSC15100 | 4.48 | 1.52 | 5800 | 6951 |
| CG15561 | DRSC24085 | 1.31 | 1.43 | 7086 | 7416 |
| GatB (Glutamyl-tRNA amidotransferase, subunit B) | DRSC15807 | 4.33 | 8.52 | 6325 | 6081 |
| GatB (Glutamyl-tRNA amidotransferase, subunit B) | DRSC27887 | 3.19 | 3.22 | 6491 | 6327 |
| CG33178 | DRSC19950 | 4.47 | 5.33 | 6327 | 6393 |
| CG5089 | DRSC06914 | 8.71 | 6.76 | 6855 | 6868 |
| CG5089 | DRSC30089 | 5.62 | 8.85 | 6570 | 5109 |

Continued; the last 7 above are carried over.
| gene | amplicon | infection score, replicate 1 | infection score, replicate 2 | cell count, replicate 1 | cell count, replicate 2 |
| --- | --- | --- | --- | --- | --- |
| CG15561 | DRSC15100 | 4.48 | 1.52 | 5800 | 6951 |
| CG15561 | DRSC24085 | 1.31 | 1.43 | 7086 | 7416 |
| GatB (Glutamyl-tRNA amidotransferase, subunit B) | DRSC15807 | 4.33 | 8.52 | 6325 | 6081 |
| GatB (Glutamyl-tRNA amidotransferase, subunit B) | DRSC27887 | 3.19 | 3.22 | 6491 | 6327 |
| CG33178 | DRSC19950 | 4.47 | 5.33 | 6327 | 6393 |
| CG5089 | DRSC06914 | 8.71 | 6.76 | 6855 | 6868 |
| CG5089 | DRSC30089 | 5.62 | 8.85 | 6570 | 5109 |
| kl-3 (retired record) | DRSC20730 | 1.44 | 0.47 | 6095 | 5900 |
| kl-3 (retired record) | DRSC20891 | 1.45 | 0.36 | 6333 | 6099 |
| kl-3 (retired record) | DRSC20934 | 1.14 | 6.74 | 6483 | 5892 |
| Cpr76Ba (Cuticular protein 76Ba) | DRSC11060 | 1.12 | 3.27 | 6187 | 6692 |
| Cpr76Ba (Cuticular protein 76Ba) | DRSC27858 | – | 3.09 | 488 | 6345 |
| CG12237 | DRSC19449 | 14 | 3.63 | 6228 | 6440 |
| CG12237 | DRSC22256 | 1.73 | 1.75 | 6256 | 6843 |
| CG12237 | DRSC24647 | 14.5 | 26.9 | 5911 | 5565 |
| Smyd4-2 (SET and MYND domain containing, class 4, member 2) | DRSC10126 | 2.12 | 0.5 | 6591 | 5982 |
| Smyd4-2 (SET and MYND domain containing, class 4, member 2) | DRSC25934 | 2.15 | 12.5 | 6237 | 5919 |
| CG14535 | DRSC02393 | 3.01 | 6.13 | 6151 | 6755 |
| Grip84 (Gamma-tubulin ring protein 84) | DRSC20248 | 16.9 | 21.1 | 6522 | 6885 |
| Grip84 (Gamma-tubulin ring protein 84) | DRSC26202 | 19.5 | 10.1 | 5291 | 5932 |
| CG3918 | DRSC23159 | 3.1 | 16 | 6580 | 2719 |
| CG3918 | DRSC28834 | 23.4 | 21.3 | 5177 | 4166 |
| BtbVII (BTB-protein-VII) | DRSC08151 | 0.41 | 2.29 | 5815 | 5891 |
| BtbVII (BTB-protein-VII) | DRSC08415 | 10.7 | 7.22 | 7226 | 7440 |
| BtbVII (BTB-protein-VII) | DRSC25020 | 6.24 | 8.86 | 6381 | 5600 |
| CG10257 | DRSC05985 | 5.06 | 15.5 | 6368 | 6173 |
| CG10311 | DRSC14228 | 2 | 4.81 | 5989 | 6254 |
| sad (shadow) | DRSC16630 | 6.22 | 7.13 | 6354 | 6547 |
| sad (shadow) | DRSC28569 | 3.78 | 10.3 | 1589 | 3910 |
| Ilp3 (Insulin-like peptide 3) | DRSC10168 | 4.92 | 3.18 | 6202 | 6602 |
| POLDIP2 (Polymerase (DNA-directed), delta interacting protein 2) | DRSC12194 | 4.25 | 6.28 | 6799 | 6738 |
| EndoG (Endonuclease G) | DRSC07292 | 6.81 | 6.55 | 6354 | 6594 |
| EndoG (Endonuclease G) | DRSC22746 | 7.07 | 21.8 | 6646 | 5147 |
| EndoG (Endonuclease G) | DRSC26632 | 3.4 | 2.89 | 5734 | 6119 |
| Ziz (Zizimin) | DRSC02506 | 10.6 | 18.5 | 5959 | 3860 |
| Ziz (Zizimin) | DRSC02976 | 3.22 | 5.06 | 5587 | 6167 |
| Alk (Anaplastic lymphoma kinase) | DRSC05918 | 3.3 | 31.6 | 6552 | 4948 |
| Alk (Anaplastic lymphoma kinase) | DRSC23342 | 1.41 | 8.79 | 6894 | 6925 |
| BEAF-32 + CG42254 (retired record) | DRSC05503 | 1.31 | 1.39 | 6042 | 6103 |
| CG12964 | DRSC23210 | 0.05 (active) | 1.34 | 6429 | 7033 |
| CG12964 | DRSC29427 | 8.34 | 14.1 | 5169 | 4368 |
| fd102C (forkhead domain 102C) | DRSC17203 | 1.4 | 18.8 | 6278 | 5408 |
| fd102C (forkhead domain 102C) | DRSC26567 | 8.31 | 4.49 | 1890 | 3744 |
| CG1663 | DRSC06613 | 2.99 | 2.19 | 6693 | 6520 |
| CG1663 | DRSC22488 | 1.44 | 0.22 | 5538 | 458 |
| CG1663 | DRSC28315 | 8.21 | 9.9 | 5248 | 4513 |
